In US10000521B2 (priority 2013, dated 2018):

System: HCV replicon
Assay: IC50 assay with HCV luciferase replicon cell-line
Assay type: cell-based
Details: TC50/IC50
Description: Plating Cells: The cells used in these assays were a liver-derived Huh7 cell line containing an HCV replicon bearing a luciferase reporter gene. The Huh7 cell-line can be obtained from various sources including the Japanese Collection of Research Bioresources (JCRB), Osaka, Japan. The Huh7 cell line containing an HCV replicon bearing a luciferase reporter gene can be prepared essentially as described by Vrolijk J M, et al. (J Virol Methods. (2003) 110(2):201-9). Cells were passaged when they reached about 70% confluency.
These 0.5 mM dilutions were then used to further serially dilute the compounds in DMEM+2% FBS+0.5% DMSO to keep the concentration of DMSO in each condition identical.
The Glo Lysis Buffer and the Bright Glow reagent was allowed to warm to room temperature for about 30 min in the dark. […] The media was removed from cells, and the cells were gently washed with about 100 μL of phosphate buffered saline (PBS). […] The plates were gently rocked for about 15 min at room temperature in the dark to ensue complete cell lysis, then about 50 μL of the Bright Glo reagent was added to each well of the 96-well plate, and the reagent was mixed well with the cell lysate. It should be noted that luciferin has a half-life of approximately 30 min at room temperature after it is added to the plate. […] The data was saved and used to calculate the percent inhibition of luciferase activity at each drug concentration. […] Curve equation: (m1−m2)/(1+(x/m3)^m4); m1=100; m2=0.01; m3=0.01; m4=0.01; the equation is: […]

| SMILES | Therapeutic Index |
| --- | --- |
| O=C(Nc1ccn(C2O[C@H](CO)[C@@H](O)C2(F)F)c(=O)n1)c1cc2c(cc1[N+](=O)[O-])OCO2 (stereo in doubt) [Compound 9] | >10,700 |
| O=C(Nc1ccn(C2O[C@H](CO)[C@@H](O)C2(F)F)c(=O)n1)c1ccc2c(c1)OCO2 (stereo partly drawn) [Compound 1, N-(1-((4R,5R)-3,3-difluoro-4-hydroxy-5-(hydroxymethyl)tetrahydrofuran-2-yl)-2-oxo-1,2-dihydropyrimidin-4-yl)benzo[d][1,3]dioxole-5-carboxamide] | 7910 |
| O=C(Nc1ccn(C2O[C@H](CO)[C@@H](O)C2(F)F)c(=O)n1)c1ccc2c(c1)OCCO2 (stereo partly drawn) [Compound 2, N-(1-((4R,5R)-3,3-difluoro-4-hydroxy-5-(hydroxymethyl)tetrahydrofuran-2-yl)-2-oxo-1,2-dihydropyrimidin-4-yl)-2,3-dihydrobenzo[b][1,4]dioxine-6-carboxamide] | 6790 |
| O=C(Nc1ccn([C@@H]2O[C@H](CO)C(O)C2(F)F)c(=O)n1)c1ccc2c(c1)OCCCO2 (stereo partly drawn) [Compound 3] | 9628 |
| CC1(C)Cc2ccc(C(=O)Nc3ccn([C@@H]4O[C@H](CO)C(O)C4(F)F)c(=O)n3)cc2O1 (stereo partly drawn) [Compound 4] | 6565 |
| O=C(Nc1ccn([C@@H]2O[C@H](CO)C(O)C2(F)F)c(=O)n1)c1ccc2c(c1)CCO2 (stereo partly drawn) [Compound 5] | 6579 |
| O=C(Nc1ccn([C@@H]2O[C@H](CO)C(O)C2(F)F)c(=O)n1)c1c(Br)ccc2c1OCO2 (stereo partly drawn) [Compound 6] | 6512 |
| O=C(Nc1ccn([C@@H]2O[C@H](CO)C(O)C2(F)F)c(=O)n1)c1ccc2c(c1)OC(F)(F)O2 (stereo partly drawn) [Compound 7] | 4051 |
| Cc1cc2c(cc1C(=O)Nc1ccn([C@@H]3O[C@H](CO)C(O)C3(F)F)c(=O)n1)OCCO2 (stereo partly drawn) [Compound 8] | 370 |
